What was measured:
[1] = tested on: C38 cells in the presence of 650 ng/mL of ExoA; assay: Determination of half-maximal effective concentration (EC50) in C38 cells; conditions: 650 ng/ml ExoA (10-times LD50), 96 h; NAP and V30 with 0.5% DMSO
cholix toxin = cholix toxin (Vibrio cholerae, UniProt Q5EK40); assay: IC50 determination for inhibitory compounds (ADP-ribosyltransferase activity, ε-NAD, eEF2); assay type: biochemical; conditions: calculated from IC50 (Cheng-Prusoff); [NAD+] 300 μM, KM 45 μM
[2] = tested on: ExoA intoxicated C38 cells; assay: Inhibitor cytoprotection in mammalian cells (increase of ExoA LD50); conditions: compound 50 μM; scored by ability to increase the LD50 of ExoA
WT ExoAc = WT ExoAc (Pseudomonas aeruginosa, UniProt P11439); assay: Binding affinity by quenching of intrinsic Trp fluorescence; design: species or system P. aeruginosa; conditions: first (high affinity) value where two are printed
[3] = tested on: Saccharomyces cerevisiae cells expressing the catalytic domain of P. aeruginosa ExoA (ExoAc); assay: Yeast-based compound screen; conditions: compound 50 μM; w303 strain; growth restored

Sequences of proteins named here, by UniProt entry; tags and fusion partners are left off. Residues count along the entry.
UniProt Q5EK40, 33-666 limits assumed: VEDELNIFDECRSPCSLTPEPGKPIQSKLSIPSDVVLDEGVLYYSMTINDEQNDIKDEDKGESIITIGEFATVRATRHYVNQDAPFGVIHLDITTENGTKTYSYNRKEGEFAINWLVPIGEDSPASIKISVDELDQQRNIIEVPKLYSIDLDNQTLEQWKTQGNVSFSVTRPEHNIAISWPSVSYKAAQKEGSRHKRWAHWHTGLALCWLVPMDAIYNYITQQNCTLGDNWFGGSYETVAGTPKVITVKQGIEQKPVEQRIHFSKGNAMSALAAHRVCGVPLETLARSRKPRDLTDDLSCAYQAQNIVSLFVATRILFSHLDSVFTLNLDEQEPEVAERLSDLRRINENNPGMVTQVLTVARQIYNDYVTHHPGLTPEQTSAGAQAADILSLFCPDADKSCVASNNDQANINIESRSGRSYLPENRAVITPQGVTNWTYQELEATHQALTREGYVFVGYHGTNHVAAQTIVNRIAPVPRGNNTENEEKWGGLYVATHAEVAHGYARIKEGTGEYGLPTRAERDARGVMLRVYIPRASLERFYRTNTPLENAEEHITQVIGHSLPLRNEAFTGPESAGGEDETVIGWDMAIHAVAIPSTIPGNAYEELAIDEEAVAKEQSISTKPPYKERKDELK
UniProt P11439, 430-638 limits assumed: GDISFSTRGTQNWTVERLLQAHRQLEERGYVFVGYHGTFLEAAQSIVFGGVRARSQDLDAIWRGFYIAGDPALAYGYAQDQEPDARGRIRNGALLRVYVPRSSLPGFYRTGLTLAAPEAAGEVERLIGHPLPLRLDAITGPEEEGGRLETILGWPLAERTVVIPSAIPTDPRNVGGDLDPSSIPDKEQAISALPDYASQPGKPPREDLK

With `O=C(CCN1CCCCC1)N1CCc2[nH]c(=O)c3cc(F)ccc3c2C1` the EC50 [1] was 3400 nM, the Ki (cholix toxin) was 80 nM and the “Protection in C38 cells” value [2] was “++++ (Compounds capable of protecting C38 cells from ExoA concentrations greater than 1000 ng/mL were scored (++++))”. For the same compound, the Kd (WT ExoAc) was 1100 nM and the “Protection in Yeast” value [3] was “− (Compounds showing less than 5% growth were scored (−))”.

From patent US20120142682A1, “ANT[…] INHIBITING BACTERIAL MONO-ADP-RIBOSYLT[…]” (UNIVERSITY OF GUELPH, priority 2010, published 2012)
